{"source": "paper PMC10975748", "about": "“Report from the 29th Meeting on Toxinology, “Toxins: From the Wild to the Lab”, Organized by the French Society of Toxinology on 30 November–1 December 2023” (Toxins, 2024)", "data": [{"tested_on": "anti-TTX monoclonal antibody", "assay": "Cross-reactivity factors, magnetic bead-based immunoassay", "type": "binding", "values": [{"substance": "6,11-dideoxyTTX", "cross-reactivity (cross-reactivity factors, CRFs)": "lower"}, {"substance": "11-deoxyTTX", "cross-reactivity (cross-reactivity factors, CRFs)": "highest cross-reactivity"}, {"substance": "11-norTTX-6(S)-ol", "cross-reactivity (cross-reactivity factors, CRFs)": "highest cross-reactivity"}]}]}
